Pooled drug test results. Numbers come from NIAID ChemDB, via PubChem.

Common to all: whole-cell or culture tests; species: Herpes simplex virus 1

Inhibition is in % at the dose shown (toxicity tests: loss of growth or viability). An empty or dashed field is not shown. Conditions beyond the fields shown may differ between rows. ECn: concentration that inhibits the pathogen or its effect by n%.

structure	strain	cell line	read by	endpoint	dose	result
CCOC(=O)P(=O)(OC)OC[C@H]1O[C@@H](n2cc(I)c(=O)[nH]c2=O)C[C@@H]1O	BRAND	VERO	cytopathic effect	inhibition	0.6 µM	>25%
Nc1ccn([C@@H]2CS[C@H](CO)O2)c(=O)n1	F	VERO	plaque count	EC90		>100 µM
Nc1nc2c(ncn2COCCO)c(=O)[nH]1		GMK	plaque count	EC90		0.59 µg/mL
Nc1ncnc2c1ccn2[C@@H]1O[C@H](CO)[C@@H](O)[C@H]1O	KOS	HeLa	cytopathic effect	EC50		>200 µg/mL
Nc1nc2c(ncn2COCCO)c(=O)[nH]1	BRAND	VERO	cytopathic effect	inhibition	0.01 µM	>25%
Nc1ncnc2c1ncn2CCOCP(=O)(O)O	KOS	HeLa	virus yield	EC90		80 µM
CCCCCc1ccc(-c2cc3cn(COCCO)c(=O)nc3o2)cc1	F	VERO	plaque count	EC90		>100 µM
O=c1[nH]c(=O)n([C@H]2C[C@H](O)[C@@H](CO)O2)cc1/C=C/Br	KOS ACV-resistant	HEL	cytopathic effect	EC50		42.5 µg/mL
C[C@]12CCC(=O)C=C1CC[C@@H]1[C@@H]2C(=O)C[C@@]2(C)[C@H]1CC[C@]2(O)C(=O)CO	KOS	HeLa	cytopathic effect	EC50		>10 µg/mL
Cc1cn([C@H]2C[C@H](N=[N+]=[N-])[C@@H](CO)O2)c(=O)[nH]c1=O	F	VERO	plaque count	EC90		>10 µM
CCOC(=O)P(=O)(O)O[C@H]1C[C@H](n2cc(CCCl)c(=O)[nH]c2=O)O[C@@H]1CO	BRAND	VERO	cytopathic effect	inhibition	234 µM	>25%
Nc1ncnc2c1ncn2CCOCP(=O)(O)O	KOS HPMPA-resistant	HEL	cytopathic effect	EC50		9.9 µg/mL
O=C(O)P(=O)(O)O		GMK	cytopathic effect	inhibition	12.5 µg/mL	40.9%
O=c1[nH]c(=O)n([C@H]2C[C@H](O)[C@@H](CO)O2)cc1CCCl	BRAND	VERO	cytopathic effect	inhibition	0.03 µM	>25%
CCCCCc1ccc(C#Cc2cn(COCCO)c(=O)[nH]c2=O)cc1	F	VERO	plaque count	EC90		>10 µM
Nc1nc2c(ncn2CCC(CO)CO)c(=O)[nH]1	KOS ACV-resistant	HEL	cytopathic effect	EC50		>20 µg/mL
NC(=O)c1nnn([C@@H]2C[C@H](CCP(=O)(O)O)C[C@H]2O)c1N	F	VERO	plaque count	EC90		>100 µM
O=C(O)P(=O)(O)O	11-Aug	SIRC	plaque count	inhibition	500 µM	>99.9%
CN[C@@H]1[C@@H](O)[C@@H](O[C@@H]2[C@@H](O)[C@H](O[C@H]3O[C@H](CN)[C@@H](O)[C@H](O)[C@H]3N)[C@@H](N)C[C@H]2N)OC[C@]1(C)O	KOS	HeLa	cytopathic effect	EC50		>100 µg/mL
O=C(O)P(=O)(O)O	PFA-resistant-5	HeLa	virus yield	EC90		830 µM
Nc1ncnc2c1ncn2[C@@H]1O[C@H](CO)[C@@H](O)[C@@H]1O	KOS PMEA-resistant	HEL	cytopathic effect	EC50		11.9 µg/mL
O=c1[nH]c(=O)n(COCCO)cc1C#Cc1ccccc1	F	VERO	plaque count	EC90		>100 µM
CCCCCCCCCCCCCCCC(=O)OCC(O)CO	KOS	HeLa	cytopathic effect	EC50		>200 µg/mL
COC(=O)[C@H]1[C@H](O)[C@@H](C)[C@@H](O)[C@](C)(O)/C=C(\C)C2=C3C(=C(C)C(=O)c4c(O)c(c(C)c(OC(C)=O)c43)NC(=O)/C(C)=C/C=C\[C@@H](C)C(O)[C@@H](C)[C@H]1O)OCO2		CV	plaque count	inhibition	13 µM	0%
CCOC(=O)P(=O)(OCCOCn1cnc2c(=O)[nH]c(N)nc21)OC(C)C	L2/R	VERO	cytopathic effect	EC95		>298 µM
COP(=O)(CC(=O)OC[C@H]1O[C@@H](n2cc(CCCl)c(=O)[nH]c2=O)C[C@@H]1O)OC	TK-	VERO	cytopathic effect	inhibition	227 µM	>25%
Cc1cn([C@@H]2O[C@H](CO)[C@@H](O)[C@@H]2O)c(=O)[nH]c1=O	KOS HPMPC-resistant	HEL	cytopathic effect	EC50		0.082 µg/mL
CCCCCc1ccc(-c2cc3cn(CC=C(CO)CO)c(=O)nc3o2)cc1	F	VERO	plaque count	EC90		46.2 µM
O=C(O)P(=O)(O)O	BRAND	VERO	cytopathic effect	inhibition	238 µM	>25%
CCCCCc1cc2cn(COCCO)c(=O)nc2o1	F	VERO	plaque count	EC90		16.4 µM
CO[C@H]1[C@@H](O)[C@H](O)[C@H](OC[C@@]23C[C@@H]4[C@H](C)CC[C@H]4[C@@]4(C=O)C[C@@H]2C=C(C(C)C)[C@@]34C(=O)O)O[C@@H]1C	KOS	HeLa	cytopathic effect	EC50		>200 µg/mL
Nc1ncnc2c1ncn2C[C@@H](CO)OCP(=O)(O)O	KOS PFA-resistant	HEL	cytopathic effect	EC50		0.065 µg/mL

Repeating the final 4 entries:

{"structure": "O=C(O)P(=O)(O)O", "strain": "BRAND", "cell line": "VERO", "read by": "cytopathic effect", "endpoint": "inhibition", "dose": "238 µM", "result": ">25%"}
{"structure": "CCCCCc1cc2cn(COCCO)c(=O)nc2o1", "strain": "F", "cell line": "VERO", "read by": "plaque count", "endpoint": "EC90", "result": "16.4 µM"}
{"structure": "CO[C@H]1[C@@H](O)[C@H](O)[C@H](OC[C@@]23C[C@@H]4[C@H](C)CC[C@H]4[C@@]4(C=O)C[C@@H]2C=C(C(C)C)[C@@]34C(=O)O)O[C@@H]1C", "strain": "KOS", "cell line": "HeLa", "read by": "cytopathic effect", "endpoint": "EC50", "result": ">200 µg/mL"}
{"structure": "Nc1ncnc2c1ncn2C[C@@H](CO)OCP(=O)(O)O", "strain": "KOS PFA-resistant", "cell line": "HEL", "read by": "cytopathic effect", "endpoint": "EC50", "result": "0.065 µg/mL"}